From PMC3334918, “Mutagenesis and Functional Studies with Succinate Dehydrogenase Inhibitors in the Wheat Pathogen Mycosphaerella graminicola” (PLoS ONE, 2012)

Key:
Experiment in all cases: in vivo sensitivity, liquid culture growth (AE media)
Format in all cases: cell-based, Mycosphaerella graminicola
[1] = system: M. graminicola strain Flu9 (SDHC_R87C); settings: C_R87C, ratio IC50mutant/IC50WT
Experimental: (§1) To explore the sensitivity profiles conferred by amino acid substitutions at the cellular and mitochondrial level, we determined sensitivity towards 4 different compounds for 26 of the identified substitution types both in vivo using liquid culture growth (AE media) and in vitro using purified mitochondria and the succinate: Q0/DCPIP activity test (Table 3). […] Resistance factors (RF) were determined as the ratio IC50mutant/IC50WT. […] Qp site mutations are well known to influence SDH enzyme activity and stability upon catalysis, [13], [38], [41].
(§2) Conidial cells were collected from 4 day old V8 agar plates (cultured at 18°C in the dark) using liquid AE and a cell spreader. Cell density was determined and cells re-suspended to a concentration of 5×10^5 cells ml^−1 in AE media. Sterile 96 wells microtiter plates with lids (Costar) were inoculated with 198 µl of this cell suspension (10^5 cells per well) and 2 µl of inhibitor (100× in DMSO). Final inhibitor concentrations were between 0.95 nM and 1 mM with uniform 4× dilution factor steps (11 inhibitor concentrations+1 DMSO control). Plates were incubated for 6 days at 19°C in the dark before cells were re-suspended and measured for growth (OD600 nm). IC50 values were determined by non linear curve fitting on the basis of measured OD values versus log inhibitor concentrations (GraphPad Prism 5.0 software).

[2] = system: M. graminicola strain Cbx29 (SDHB_H267L); settings: B_H267L, ratio IC50mutant/IC50WT
Experimental: as §1, §2

[3] = system: M. graminicola strain Flu29 (SDHD_D129T); settings: D_D129T, ratio IC50mutant/IC50WT
Experimental: as §1, §2

[4] = system: M. graminicola strain Flu21 (SDHC_A84I); settings: C_A84I, ratio IC50mutant/IC50WT
Experimental: as §1, §2

[5] = system: M. graminicola strain Cbx96 (SDHB_H267N); settings: B_H267N, ratio IC50mutant/IC50WT
Experimental: as §1, §2

[6] = system: M. graminicola strain Cbx101 (SDHD_D129S); settings: D_D129S, ratio IC50mutant/IC50WT
Experimental: as §1, §2

[7] = system: M. graminicola strain Flu7 (SDHB_N225I); settings: B_N225I, ratio IC50mutant/IC50WT
Experimental: as §1, §2

[8] = system: M. graminicola strain Flu110 (SDHB_P220T); settings: B_P220T, ratio IC50mutant/IC50WT
Experimental: as §1, §2

[9] = system: M. graminicola strain Bos59 (SDHB_H267Q); settings: B_H267Q, ratio IC50mutant/IC50WT
Experimental: as §1, §2

[10] = system: M. graminicola strain Flu33 (SDHB_N271K); settings: B_N271K, ratio IC50mutant/IC50WT
Experimental: as §1, §2

[11] = system: M. graminicola strain Flu41 (SDHB_S218F); settings: B_S218F, ratio IC50mutant/IC50WT
Experimental: as §1, §2

[12] = system: M. graminicola strain Bos64 (SDHC_T79I); settings: C_T79I, ratio IC50mutant/IC50WT
Experimental: as §1, §2

[13] = system: M. graminicola strain Ol50 (SDHC_V88D); settings: C_V88D, ratio IC50mutant/IC50WT
Experimental: as §1, §2

[14] = system: M. graminicola strain Cbx22 (SDHD_D129E); settings: D_D129E, ratio IC50mutant/IC50WT
Experimental: as §1, §2

[15] = system: M. graminicola strain Flu4 (SDHC_A84V); settings: C_A84V, ratio IC50mutant/IC50WT
Experimental: as §1, §2

[16] = system: M. graminicola strain Flu75 (SDHB_P220L); settings: B_P220L, ratio IC50mutant/IC50WT
Experimental: as §1, §2

[17] = system: M. graminicola strain Izm1 (SDHC_H152R); settings: C_H152R, ratio IC50mutant/IC50WT
Experimental: as §1, §2

[18] = system: M. graminicola strain Cbx1 (SDHB_I269V); settings: B_I269V, ratio IC50mutant/IC50WT
Experimental: as §1, §2

[19] = system: M. graminicola strain Cbx67 (SDHD_D129G); settings: D_D129G, ratio IC50mutant/IC50WT
Experimental: as §1, §2

[20] = system: M. graminicola strain Cbx106 (SDHB_N225H); settings: B_N225H, ratio IC50mutant/IC50WT
Experimental: as §1, §2

[21] = system: M. graminicola strain Izm7 (SDHC_N86K); settings: C_N86K, ratio IC50mutant/IC50WT
Experimental: as §1, §2

[22] = system: M. graminicola strain Cbx56 (SDHB_R265P); settings: B_R265P, ratio IC50mutant/IC50WT
Experimental: as §1, §2

[23] = system: M. graminicola strain Cbx76 (SDHC_H145R); settings: C_H145R, ratio IC50mutant/IC50WT
Experimental: as §1, §2

[24] = system: M. graminicola strain Flu1 (SDHC_S83G); settings: C_S83G, ratio IC50mutant/IC50WT
Experimental: as §1, §2

[25] = system: M. graminicola strain Cbx12 (SDHC_L85P); settings: C_L85P, ratio IC50mutant/IC50WT
Experimental: as §1, §2

[26] = system: M. graminicola strain Cbx28 (SDHB_H267Y); settings: B_H267Y, ratio IC50mutant/IC50WT
Experimental: as §1, §2

Row | Compound | Resistance Factors (RFs) in vivo [1] | Resistance Factors (RFs) in vivo [2] | Resistance Factors (RFs) in vivo [3] | Resistance Factors (RFs) in vivo [4] | Resistance Factors (RFs) in vivo [5] | Resistance Factors (RFs) in vivo [6] | Resistance Factors (RFs) in vivo [7] | Resistance Factors (RFs) in vivo [8] | Resistance Factors (RFs) in vivo [9] | Resistance Factors (RFs) in vivo [10] | Resistance Factors (RFs) in vivo [11] | Resistance Factors (RFs) in vivo [12] | Resistance Factors (RFs) in vivo [13] | Resistance Factors (RFs) in vivo [14] | Resistance Factors (RFs) in vivo [15] | Resistance Factors (RFs) in vivo [16] | Resistance Factors (RFs) in vivo [17] | Resistance Factors (RFs) in vivo [18] | Resistance Factors (RFs) in vivo [19] | Resistance Factors (RFs) in vivo [20] | other results
1 | O=C(Nc1ccccc1-c1ccc(Cl)cc1)c1cccnc1Cl [Boscalid] | 18.8 | 258.0 | 78.3 | 2.9 | 3.4 | 15.9 | 12.9 | 6.1 | 21.7 | 3.4 | 6.5 | 18.9 | 5.0 | 42.8 | 2.6 | 2.2 | 30.2 | 4.2 | 37.1 | 12.2 | Resistance Factors (RFs) in vivo [21]: 78.1; Resistance Factors (RFs) in vivo [22]: 13.3; Resistance Factors (RFs) in vivo [23]: 17.3; Resistance Factors (RFs) in vivo [24]: 564.3; Resistance Factors (RFs) in vivo [25]: 4.1; Resistance Factors (RFs) in vivo [26]: 305.6
2 | CC1=C(C(=O)Nc2ccccc2)SCCO1 [Carboxin] | 3.2 | 14.5 | 60.4 | 1.2 | 12.6 | 39.7 | 10.2 | 0.1 | 4.4 | 2.6 | 5.3 | 5.2 | 4.4 | 35.9 | 0.8 | 1.4 | 13.2 | 12.4 | 17.2 | 20.2 | Resistance Factors (RFs) in vivo [21]: 23.8; Resistance Factors (RFs) in vivo [22]: 20.1; Resistance Factors (RFs) in vivo [23]: 4.4; Resistance Factors (RFs) in vivo [24]: 10.7; Resistance Factors (RFs) in vivo [25]: 11.5; Resistance Factors (RFs) in vivo [26]: 14.1
3 | O=C(NCCc1ncc(C(F)(F)F)cc1Cl)c1ccccc1C(F)(F)F [Fluopyram] | 6.1 | 22.4 | 11.5 | 31.9 | 9.9 | 1.9 | 17.5 | 11.5 | 0.9 | 10.0 | 18.0 | 2.2 | 5.9 | 1.3 | 19.0 | 5 | 11.5 | 10.0 | 5.6 | 8.0 | Resistance Factors (RFs) in vivo [21]: 49.9; Resistance Factors (RFs) in vivo [22]: 2.8; Resistance Factors (RFs) in vivo [23]: 2.0; Resistance Factors (RFs) in vivo [24]: 126.8; Resistance Factors (RFs) in vivo [25]: 5.8; Resistance Factors (RFs) in vivo [26]: 0.6
